Compound potency records, mixed from different reports. Data source: NIAID ChemDB in PubChem.

Shared fields: whole-cell or culture tests; species: HIV-1; measure: EC50

Blank or dashed fields: not listed here.

CCCCCCCCCCCCCCCCCCOCCOP(=O)(O)CO[C@H](CO)Cn1cnc2c(N)ncnc21 ; changes: M41L T69SS L74V M18V L210W ; cell line: PBMC ; strain or isolate: NRTI-MDR ; method: p24 / ELISA ; value: 0.016 µM
COc1ccc(C(=O)NC(C)(C)CNC[C@H](O)[C@@]23CC[C@]4(C)[C@H](CC[C@@H]5[C@@]6(C)CC[C@H](OC(=O)[C@H]7C[C@@H](C(=O)O)C7(C)C)C(C)(C)[C@@H]6CC[C@]54C)C2=C(C(C)C)C(=O)C3)cc1 ; cell line: MT-2 ; strain or isolate: 92HT599 ; method: p24 / ELISA ; value: <1 µM
CC(C)CN1CCn2cnnc2-c2sc3ccccc3c21 ; cell line: OM-10.1 ; method: p24 ; value: 0.5 µM
CCN1c2ncc(CCOc3ccc(C(=O)O)c4c3CCN(C(C)=O)C4)cc2C(=O)N(C)c2cccnc21 ; cell line: C8166 ; strain or isolate: WT ; method: p24 ; value: 0.1–1 µM
CC(C)C1=C2[C@H]3CC[C@@H]4[C@@]5(C)CC[C@H](OC(=O)[C@H]6C[C@@H](C(=O)O)C6(C)C)C(C)(C)[C@@H]5CC[C@@]4(C)[C@]3(C)CC[C@@]2([C@@H](O)CNC(=O)C(C)(C)NC(=O)c2nccs2)CC1=O ; cell line: MT-2 ; strain or isolate: 92HT599 ; method: p24 / ELISA ; value: <1 µM
Cc1cc(-c2ccc(CC(=O)O)cc2)ccc1OCCc1cnc2c(c1)C(=O)N(C)c1cccnc1N2 ; cell line: C8166 ; strain or isolate: IIIB ; method: p24 ; value: <0.01 µM
COc1cc(-c2ccc(N=Nc3ccc4c(S(=O)(=O)O)cc(S(=O)(=O)O)c(N)c4c3O)c(OC)c2)ccc1N=Nc1ccc2c(S(=O)(=O)O)cc(S(=O)(=O)O)c(N)c2c1O ; cell line: CEM + CEM-SS ; strain or isolate: IIIB ; method: cytopathic effect / XTT ; value: 0.6 µM
CN(Cc1ccccc1)C(=O)c1cccn1S(=O)(=O)c1cc(Cl)ccc1N ; cell line: MT-4 ; strain or isolate: IIIB ; method: cytopathic effect / MTT ; value: >87 µM
CC(C)C1=C2[C@H]3CC[C@@H]4[C@@]5(C)CC[C@H](OC(=O)[C@H]6C[C@@H](C(=O)O)C6(C)C)C(C)(C)[C@@H]5CC[C@@]4(C)[C@]3(C)CC[C@@]2(CC(=O)NCc2ccc(S(C)(=O)=O)cc2)CC1=O ; cell line: MT-2 ; strain or isolate: 92HT599 ; method: p24 / ELISA ; value: <1 µM
CCC(C)OC(=O)c1cccn1S(=O)(=O)c1cc(Cl)ccc1[N+](=O)[O-] ; cell line: MT-4 ; strain or isolate: IIIB ; method: cytopathic effect / MTT ; value: ≥32.5 µM
CSC1=NC2(C[C@@H]2c2ccccc2)C(=O)N1C(C)=O ; cell line: MT-4/C8166 + MT-4 ; strain or isolate: ADP/141 ; method: MTT ; value: 2.3–5.8 µg/mL
NNC(=O)c1cccn1S(=O)(=O)c1cc(Cl)ccc1N ; cell line: MT-4 ; strain or isolate: IIIB ; method: cytopathic effect / MTT ; value: >200 µM
CCCCCCCCCCCCCCCCCCOCCOP(=O)([O-])CO[C@H](COC)Cn1cnc2c(N)ncnc21 ; cell line: MT-2 ; strain or isolate: LAI ; method: p24 / ELISA ; value: 0.03 µM
CC(C)CCC[C@@H](C)[C@H]1CCC2C3CCC4C[C@@H](O[C@H]5O[C@H](COS(=O)(=O)[O-])[C@@H](OS(=O)(=O)[O-])[C@H](OS(=O)(=O)[O-])[C@@H]5O[C@H]5O[C@H](COS(=O)(=O)[O-])[C@@H](OS(=O)(=O)[O-])[C@H](O[C@H]6O[C@H](COS(=O)(=O)[O-])[C@@H](OS(=O)(=O)[O-])[C@H](O[C@H]7O[C@H](COS(=O)(=O)[O-])[C@@H](OS(=O)(=O)[O-])[C@H](OS(=O)(=O)[O-])[C@@H]7OS(=O)(=O)[O-])C6OS(=O)(=O)[O-])[C@@H]5OS(=O)(=O)[O-])CC[C@]4(C)C3CC[C@@]21C ; cell line: PBMC ; strain or isolate: HI92-206 isolate (X4/R5) ; method: p24 / ELISA / antigen ; value: 24 µg/mL
CCN1c2ncc(CCOc3ccc(NC(=O)Nc4ccc(C(=O)O)cc4)cc3C)cc2C(=O)N(C)c2cccnc21 ; changes: RT-K103N Y181C ; cell line: C8166 ; method: p24 ; value: >0.05 µM
CC(C)C1=C2[C@H]3CC[C@@H]4[C@@]5(C)CC[C@H](OC(=O)[C@H]6C[C@@H](C(=O)O)C6(C)C)C(C)(C)[C@@H]5CC[C@@]4(C)[C@]3(C)CC[C@@]2([C@@H](O)CNCc2ccc(Cl)cc2OCCN2CCCC2)CC1=O ; cell line: MT-2 ; strain or isolate: 92HT599 ; method: p24 / ELISA ; value: <1 µM
COc1ccc(NC(=S)c2ccsc2C)cc1OCC=C(Cl)Cl ; changes: RT-E138K ; cell line: CEM ; strain or isolate: TSAO-m3T-resistant (RT E138K) ; method: syncytia ; value: 0.13 µg/mL
COc1ccc2sc3c(c2c1)SCC(C)/C3=N\OC(C)=O ; cell line: OM-10.1 ; method: p24 ; value: 0.2 µM
C#CCOC(=O)c1cccn1S(=O)(=O)c1cc(Cl)ccc1N ; cell line: MT-4 ; strain or isolate: IIIB ; method: cytopathic effect / MTT ; value: 1.86 µM
COc1ccc2c(c1)C1=C(CC2)C(=O)N[C@H]2CCCC[C@@H]2N1 ; cell line: OM-10.1 ; method: p24 ; value: 5.3 µM
C/C(Cl)=C/COc1cc(NC(=S)c2ccoc2C)ccc1Cl ; changes: RT-E138K ; cell line: CEM ; strain or isolate: TSAO-m3T-resistant (RT E138K) ; method: syncytia ; value: 0.008 µg/mL
O=C1NCCN(Cc2ccccc2)c2c1sc1ccc(Cl)cc21 ; cell line: OM-10.1 ; method: p24 ; value: <0.002 µM
Cc1occc1C(=S)Nc1ccc(Cl)c(OCC=C(Cl)Cl)c1 ; changes: RT-L100I ; cell line: CEM ; strain or isolate: TIBO R82150-resistant (RT L100I) ; method: syncytia ; value: 0.14 µg/mL
Clc1cc(CN2CCCNCCNCCCNCC2)cc(Cl)n1 ; cell line: MT-4 ; strain or isolate: HE R3 R5 X4 ; method: p24 ; value: 26.5 µM
CCN1c2ncc(CCOc3ccc(C(=O)O)c4c3CCCC4)cc2C(=O)N(C)c2ccc(Cl)nc21 ; cell line: C8166 ; strain or isolate: WT ; method: p24 ; value: <0.1 µM
C=C(Cl)COc1cc(NC(=S)c2ccoc2C)ccc1Cl ; changes: RT-V106A ; cell line: CEM ; strain or isolate: Nevirapine-resistant isolate (RT V106A) ; method: syncytia ; value: 0.51 µg/mL
CC(C)C1=C2[C@H]3CC[C@@H]4[C@@]5(C)CC[C@H](OC(=O)[C@H]6C[C@@H](C(=O)O)C6(C)C)C(C)(C)[C@@H]5CC[C@@]4(C)[C@]3(C)CC[C@@]2(CC(=O)NCC(C)(C)NC(=O)c2ccc(Cl)cc2O[C@@H]2CCOC2)CC1=O ; cell line: MT-2 ; strain or isolate: 92HT599 ; method: p24 / ELISA ; value: <1 µM
CCCCN1CCNC(=O)C2=C1c1cc(OC)ccc1CC2 ; cell line: OM-10.1 ; method: p24 ; value: 0.8 µM
CCN1c2ncc(CCOc3ccc(C(=O)O)c4ccccc34)cc2C(=O)N(C)c2ccc(F)nc21 ; changes: RT-K103N Y181C ; cell line: C8166 ; method: p24 ; value: <0.1 µM
CC(C)CN(C[C@@H](O)[C@H](Cc1ccccc1)NC(=O)O[C@H]1CO[C@H]2OCC[C@H]21)S(=O)(=O)c1ccc2nc(NC3CCN(C4CCCC4)CC3)sc2c1 ; changes: L10F I47V L90M ; cell line: MT-4 ; strain or isolate: T21217 ; method: reporter gene ; value: 312 nM
COc1ccc2c(c1)C1=C(CC2)C(=O)NCCN1Cc1ccc(C)cc1 ; cell line: OM-10.1 ; method: p24 ; value: 0.5 µM
CC(C)C1=C2[C@H]3CC[C@@H]4[C@@]5(C)CC[C@H](OC(=O)[C@H]6C[C@@H](C(=O)O)C6(C)C)C(C)(C)[C@@H]5CC[C@@]4(C)[C@]3(C)CC[C@@]2(CC(=O)NC(F)(F)c2ccccc2)CC1=O ; cell line: MT-2 ; strain or isolate: 92HT599 ; method: p24 / ELISA ; value: <1 µM
CCN1c2ncc(CCOc3ccc(C(=O)O)c4c3CCN(C(=O)N(C)C)C4)cc2C(=O)N(C)c2cccnc21 ; cell line: C8166 ; strain or isolate: WT ; method: p24 ; value: <0.1 µM
CCN1c2ncc(CCOc3ccc(-c4ccc(O)c(C(=O)O)c4)cc3C)cc2C(=O)N(C)c2cccnc21 ; changes: RT-K103N Y181C ; cell line: C8166 ; method: p24 ; value: >0.05 µM
CCCCCCCCCCCCCCCCCCOCCOP(=O)(O)CO[C@H](CO)Cn1cnc2c(N)nc(N)nc21 ; changes: M41L T69SS L74V M184V L210W ; cell line: PBMC ; strain or isolate: NRTI-MDR ; method: p24 / ELISA ; value: 0.008 µM
CCN1c2ncc(CCOc3ccc(-c4ccc(O)cc4)cc3C)cc2C(=O)N(C)c2cccnc21 ; changes: RT-K103N Y181C ; cell line: C8166 ; method: p24 ; value: <0.01 µM
COc1ccc(NC(=O)c2ccoc2C)cc1OCC=C(Cl)Cl ; changes: RT-E138K ; cell line: CEM ; strain or isolate: TSAO-m3T-resistant (RT E138K) ; method: syncytia ; value: 10 µg/mL
CCC(=O)c1ccc(F)c([C@@H]2C[C@@H]2NC(=O)Nc2ccc(C#N)cn2)c1O ; changes: NNRTI-resistant (RT F227C) ; cell line: TZM-bl ; strain or isolate: LAI ; method: β-galactosidase / luminescence ; value: 0.01001 µM
CCNC(=O)c1cccn1S(=O)(=O)c1cc(Cl)ccc1N ; cell line: MT-4 ; strain or isolate: IIIB ; method: cytopathic effect / MTT ; value: >200 µM

3 of the rows above, restated:

smiles,changes,cell line,strain or isolate,method,value
CCN1c2ncc(CCOc3ccc(-c4ccc(O)c(C(=O)O)c4)cc3C)cc2C(=O)N(C)c2cccnc21,RT-K103N Y181C,C8166,,p24,>0.05 µM
C=C(Cl)COc1cc(NC(=S)c2ccoc2C)ccc1Cl,RT-V106A,CEM,Nevirapine-resistant isolate (RT V106A),syncytia,0.51 µg/mL
COc1ccc2sc3c(c2c1)SCC(C)/C3=N\OC(C)=O,,OM-10.1,,p24,0.2 µM

Neighbouring rows are from separate reports. ECn is the concentration giving n% inhibition of infection, replication or growth. Two numbers with a dash give a range or band.